Measurements reported in patent publication US20150283227A1, “SYNTHETIC ENV PROTEINS” (priority 2012, published 2015).
Marks after values point to notes of the source that are not given here.

Experiments:
[1] = biological target: PG9 UCA; experiment: SPR binding to unmutated ancestor of PG9; set-up: species or system human; conditions: Table 1, faster component of dissociation phase
Description: (§1) Only the V1/V2 mAb CH58 bound to the glycan-deficient (aglycone) peptide (FIG. 9A). V1/V2 bNAbs ([…], CH01) bound weakly to V1/V2 GlcNAc2 peptide (FIG. 9B). In contrast, both bNAbs PG9 and CH01 bound avidly to the glycopeptides, V1/V2 Man3GlcNAc2 and V1/V2 Man5GlcNAc2 (FIGS. 9C and 9D). CH58 bound weakly to both glycopeptides. Each of the mAbs was captured on a human Fc specific IgG directly immobilized on a BIAcore CM5 sensor chip. Each of the V1/V2 peptides (3 min at 50 uL/min) was injected over the mAb captured surface and SPR binding was monitored on a BIAcore 3000 instrument. Non-specific binding of peptides was subtracted following measurement of signal on a surface with a control ant-RSV mab Synagis.
(§2) The binding Kd (disassociation constant) of the UAs ranges from about 0.15 to 0.2 μM.
(§3) V1V2 glycopeptide binding Kd and rate constant measurements were carried out on BIAcore 3000 instruments as described earlier (Alam et al, Immunol. 178(7):4424-4435 (2007), Alam et al, J. Virol. 82(1):115-125 (2008)). […]

[2] = biological target: CH01 UCA; experiment: SPR binding to unmutated ancestor of CH01; set-up: species or system human; conditions: Table 1, faster component of dissociation phase
Description: as §1, §2, §3

## Man3GlcNAc2 V1V2
[1]
  kd: 56.6 s^−1 (×10^4)
[2]
  kd: 36.3 s^−1 (×10^4)
